Laboratory results as given in article PMC6104695 (Virulence, 2017).
≈ marks a conversion by molar mass, not a printed value.

Tested on: B. anthracis Sterne vegetative bacteria
Conditions: 24 h

For CC[C@H](C)[C@H](NC(=O)[C@@H](NC(=O)[C@H](CCCCN)NC(=O)[C@@H]1CCCN1C(=O)[C@H](CCCCN)NC(=O)[C@H](CCCCN)NC(=O)[C@H](Cc1ccccc1)NC(=O)[C@H](Cc1ccccc1)NC(=O)[C@H](CCCCN)NC(=O)[C@H](CCCCN)NC(=O)[C@H](C)NC(=O)[C@H](CCCNC(=N)N)NC(=O)[C@H](CCCCN)NC(=O)[C@H](CCCCN)NC(=O)[C@@H](NC(=O)[C@H](CO)NC(=O)[C@H](CC(N)=O)NC(=O)[C@H](CCCCN)NC(=O)[C@H](CC(C)C)NC(=O)[C@H](CCCCN)NC(=O)[C@H](CCCCN)NC(=O)[C@H](Cc1ccccc1)NC(=O)[C@H](Cc1ccccc1)NC(=O)[C@H](CCCCN)NC(=O)[C@H](CCCCN)NC(=O)[C@H](Cc1ccccc1)NC(=O)[C@H](CCCNC(=N)N)NC(=O)[C@@H](N)CCCCN)C(C)C)C(C)C)C(=O)NCC(=O)N[C@H](C(=O)N[C@H](C(=O)N[C@@H](Cc1ccccc1)C(=O)N1CCC[C@H]1C(=O)N[C@@H](Cc1ccccc1)C(=O)O)[C@@H](C)O)C(C)C [NA-CATH], the MIC was 3.83 µM (≈ 16 µg/mL).
